Compound potency records, mixed from different reports. Data source: NIAID ChemDB in PubChem.

All rows: tests in culture; species: HIV-1; read by: cytopathic effect / MTT; read-out: EC50

ECn: concentration that inhibits the pathogen or its effect by n%. Blank or dashed fields: not listed here. Conditions beyond the fields shown may differ between rows.

smiles | setting | mutations | cells | strain | result
CCCc1cc(=O)oc2c3c(c4c(c12)OC(C)(C)C=C4)O[C@@H](C)[C@H](C)C3=O |  |  | CEM + CEM-SS | IIIB | 2.47 µM
C[C@@H]1O[C@@H](Oc2c(-c3ccc(O)cc3)oc3c4c(cc(O)c3c2=O)OC(C)(C)C=C4)[C@H](O)[C@H](O)[C@H]1O |  |  | MT-4 | IIIB | >500 µg/mL
CCCc1cc(=O)oc2c3c(c4c(c12)OC(C)(C)C=C4)O[C@@H](C)[C@H](C)[C@H]3O |  | Pyridinone- and TIBO-resistant | MT-2 | A17 | >1 µg/mL
CC(C)(C)NC(=O)[C@@H]1C[C@@H]2CCCC[C@@H]2CN1C[C@@H](O)[C@H](Cc1ccccc1)NC(=O)[C@H](CC(N)=O)NC(=O)c1ccc2ccccc2n1 |  |  | MT-4 | NL4-3 B | 0.012 µM
O=C(/C=C/c1ccc(O)c(O)c1)CCc1ccccc1 |  |  | MT-4 |  | >15 µM
CCC(C)(C)c1c(O)cc(O)c2c(=O)c(O)c(-c3cc(O)c4c(c3CC=C(C)C)CCC(C)(C)O4)oc12 |  |  | MT-4 | IIIB | >20 µg/mL
Nc1ccn([C@H]2CC[C@@H](CO)O2)c(=O)n1 |  |  | MT-2 | IIIB | 5.924 µM
Clc1ccccc1/C=N/c1nc2ccccc2s1 |  |  | MT-4 | IIIB | >100 µM
Cc1cc(C)cc(Cc2c(C(C)C)nc(SCC(N)=O)n2COCc2ccccc2)c1 |  |  | MT-4 | IIIB | 0.15 µM
C[C@@H]1O[C@@H]2OCCC[C@@H]2[C@@H]1OC(=O)N[C@@H](Cc1ccccc1)[C@H](O)CN1C[C@H]2CCCC[C@H]2C[C@H]1C(=O)NC(C)(C)C |  |  | MT-2 | LAI | 0.006 µM
Nc1cccc(CN2C(=O)N[C@H](CCc3ccccc3)[C@@H](O)[C@H]2Cc2ccccc2)c1 |  |  | MT-2 | RF | <4.33 µM
CCCCCCCCCCCCOC1OC(COS(=O)(=O)O)C(OC2OC(COS(=O)(=O)O)C(OC3OC(COS(=O)(=O)O)C(OC4OC(COS(=O)(=O)O)C(OC5OC(COS(=O)(=O)O)C(OC6OC(COS(=O)(=O)O)C(OS(=O)(=O)O)C(OS(=O)(=O)O)C6O)C(OS(=O)(=O)O)C5OS(=O)(=O)O)C(O)C4OS(=O)(=O)O)C(OS(=O)(=O)O)C3O)C(OS(=O)(=O)O)C2O)C(O)C1OS(=O)(=O)O |  |  | PBL | IIIB | 11.7 µg/mL
O=C(/C=C/c1ccc(O)c(O)c1)/C=C/c1ccc(O)c(O)c1 |  |  | MT-4 |  | >38 µM
NCC(=O)Nc1ccc(Cl)cc1C(=O)c1ccc[nH]1 |  |  | MT-4 | IIIB | >1.7 µg/mL
CC(C)(C)NC(=O)[C@@H]1C[C@@H]2CCCC[C@@H]2CN1C[C@@H](O)[C@H](Cc1ccccc1)NC(=O)[C@H](CC(N)=O)NC(=O)c1ccc2ccccc2n1 | 5 d |  | MT-2 | IIIB | 0.003 µM
CC(C)CN(C[C@@H](O)[C@H](Cc1ccccc1)NC(=O)O[C@@H]1[C@@H]2CCCO[C@@H]2O[C@H]1C)S(=O)(=O)c1ccc(N)cc1 |  |  | MT-2 | LAI | 0.026 µM
CC(C)(C)NC(=O)[C@@H]1CN(Cc2cccnc2)CCN1C[C@@H](O)C[C@@H](Cc1ccccc1)C(=O)N[C@H]1c2ccccc2C[C@H]1O |  |  | MT-4 | NL4-3 PR S12T I15V I19L M36I R41K H69K L89M CLONE 5( C ) | 0.0066 µM
CC(C)c1c(COC(N)=O)cn(Cc2ccncc2)c1Sc1cc(Cl)cc(Cl)c1 |  | RT-K103N |  |  | <30 µM
NCCS |  |  | CEM | IIIB | <100 µM
O=C(/C=C/c1ccc(O)cc1)/C=C/c1ccc(O)cc1 |  |  | MT-4 |  | >1.6 µM
Nc1ccn([C@H]2CC[C@@H](CO)O2)c(=O)n1 |  |  | MT-2 | RF | ~0.05 µM
C(=N\c1nccs1)/c1ccccc1 |  |  | MT-4 | IIIB | >100 µM
CCOCn1c(SCC(N)=O)nc(C(C)C)c1Cc1ccccc1 |  |  | MT-4 | IIIB | 10.96 µM
Cc1cn([C@H]2C[C@@H](O)[C@H](CO)O2)c(=O)[nH]c1=O |  |  | MT-4 | IIIB | >1000 µM
CC(C)c1c(CO)cn(Cc2ccncc2)c1Sc1ccccc1 |  |  | MT-4 | IIIB | 0.1 µM
Cc1cc(C)cc(CC(N)C(=O)C(C)C)c1 |  |  | MT-4 | IIIB | 32.77 µM
COc1c(O)c(I)c2c(c1OC)-c1c(c(I)c(O)c(OC)c1OC)C[C@H](C)[C@H](C)C2 |  | RT-Y181C | MT-2 | N119 nevirapine-resistant (RT Y181C) | >20 µM
CCOC(=O)[C@H](C)NP(=O)(OC[C@@H]1O[C@H](n2cc(C)c(=O)[nH]c2=O)C[C@H]1N=[N+]=[N-])OC[C@H]1O[C@@H](n2cc(C)c(=O)[nH]c2=O)C[C@@H]1N=[N+]=[N-] |  |  | MT-4 | IIIB | 0.35 µM
Cc1cn([C@H]2C[C@H](N=[N+]=[N-])[C@@H](CO)O2)c(=O)[nH]c1=O |  |  | MT-4 | IIIB | 0.017 µM
CNc1cccc(CN2C(=O)N(Cc3cccc(NC)c3)[C@H](Cc3ccccc3)[C@H](O)[C@H]2CCc2ccccc2)c1 |  |  | MT-2 | RF | <0.328 µM
O=C1/C(=C/c2ccc(O)c(O)c2)COC/C1=C\c1ccc(O)c(O)c1 |  |  | MT-4 |  | >10 µM
Cc1cn([C@H]2C[C@H](N=[N+]=[N-])[C@@H](CO)O2)c(=O)[nH]c1=O |  |  | MT-4 | IIIB | 0.0019 µM
CC(C)c1c(COC(N)=O)cn(Cc2ccncc2)c1Sc1ccccc1 |  | RT-K103N |  |  | >100 µM
Cc1ccnc2c1NC(=O)c1cccnc1N2C1CC1 |  |  | MT-4 |  | 0.01 µM
C[C@H]1O[C@@H]2OCCC[C@@H]2[C@@H]1OC(=O)N[C@@H](Cc1ccccc1)[C@H](O)CN1C[C@H]2CCCC[C@H]2C[C@H]1C(=O)NC(C)(C)C |  |  | MT-2 | LAI | 0.005 µM
O=C(O)c1oc2cc(O)cc(O)c2c(=O)c1Oc1ccc(OCc2ccccc2)cc1OCc1ccccc1 |  |  | MT-4 | IIIB | >25 µg/mL
CCc1nc(SCC(N)=O)n(COCc2ccccc2)c1Cc1cc(C)cc(C)c1 |  |  | MT-4 | IIIB | 2.48 µM
Nc1nc2c(ncn2[C@H]2C[C@@H](O)[C@H](CO)O2)c(=O)[nH]1 |  |  | MT-4 | IIIB | >100 µM
CC(C)CN([C@H](CO)CCCCNC(=O)[C@@H](NC(=O)c1ccc(N)nc1)C(c1ccccc1)c1ccccc1)S(=O)(=O)c1ccc(N)cc1 |  | PR-M46I V82T I84V L10R L63P | MT-4 | 4596 PR-M46I V82T I84V L10R L63P | 0.072 µM
CC(=O)c1cccc(CN2C(=O)N(Cc3cccc(C(C)=O)c3)[C@H](Cc3ccccc3)[C@H](O)[C@H]2CCc2ccccc2)c1 |  |  | MT-2 | RF | <0.049 µM
CCCCCCCCCCCCCCCCCCOC1OC(COS(=O)(=O)O)C(OC2OC(COS(=O)(=O)O)C(OC3OC(COS(=O)(=O)O)C(OC4OC(COS(=O)(=O)O)C(OC5OC(COS(=O)(=O)O)C(OC6OC(COS(=O)(=O)O)C(OS(=O)(=O)O)C(OS(=O)(=O)O)C6O)C(OS(=O)(=O)O)C5O)C(O)C4OS(=O)(=O)O)C(O)C3OS(=O)(=O)O)C(OS(=O)(=O)O)C2O)C(OS(=O)(=O)O)C1O |  |  | MT-4 | IIIB | 0.6 µg/mL
COc1cc(O)cc2c1[C@@H]1Oc3c(ccc(O)c3CC=C(C)C)[C@@H]1CO2 |  |  | MT-4 | IIIB | >20 µg/mL
O=C(/C=C(O)/C=C/c1ccc(O)cc1)/C=C/c1ccc(O)cc1 |  |  | MT-4 |  | >13 µM
Nc1ccc(CN2C(=O)N(Cc3ccc(N)c(F)c3)[C@H](Cc3ccccc3)[C@H](O)[C@H]2CCc2ccccc2)cc1F |  |  | MT-2 | RF | <0.539 µM
CC(C)=CCc1c(-c2ccc(O)cc2O)oc2c3c(cc(O)c2c1=O)OC(c1c(O)cc(O)c2c(=O)c(CC=C(C)C)c(-c4ccc(O)cc4O)oc12)C1C3C=C(C)CC1(C)C |  |  | MT-4 | IIIB | >20 µg/mL
CC(C)=CCN1Cc2cc(Cl)cc3[nH]c(=S)n(c23)C[C@@H]1C |  |  | CEM + CEM-SS | PM16 | 0.652 µM
CC(C)=CCc1c(O)cc(O)c2c(=O)c(O[C@@H]3O[C@@H](C)[C@H](O)[C@@H](O)[C@H]3O)c(-c3ccc(O)cc3)oc12 |  |  | MT-4 | IIIB | >500 µg/mL
Cc1cn([C@H]2C[C@H](N=[N+]=[N-])[C@@H](CO)O2)c(=O)[nH]c1=O |  | RT-Y181C | MT-2 | N119 nevirapine-resistant (RT Y181C) | 0.12 µM
CC(C)=CCc1c(O)cc(CCc2ccc(O)c(O)c2)c(CC=C(C)C)c1O |  |  | MT-4 | IIIB | >4 µg/mL
Nc1n[nH]c2ccc(CN3C(=O)N(Cc4ccccc4)[C@H](CCc4ccccc4)[C@@H](O)[C@H]3Cc3ccccc3)cc12 |  |  | MT-2 | RF | <0.126 µM
Cc1cn([C@H]2C=C[C@@H](CO)O2)c(=O)[nH]c1=O |  |  | MT-4 | IIIB WT | 1 µM
O=c1ccn([C@@H]2O[C@@H](CO)[C@H](O)[C@H]2O)c(=O)[nH]1 |  |  | MT-4 | IIIB | >1000 µM
Fc1cccc(F)c1C1SCc2nc3ccccc3n21 |  | RT-L100I | CEM | IIIB | 3.12 µM
Nc1nc2c(ncn2[C@@H]2O[C@@H](CO)[C@H](O)[C@H]2O)c(=O)[nH]1 |  |  | MT-4 | IIIB | >100 µM
Cc1cn([C@H]2C[C@H](N=[N+]=[N-])[C@@H](CO)O2)c(=O)[nH]c1=O |  |  | MT-4 | IIIB | 0.017 µM
CCCCCCCCCCOC1OC(COS(=O)(=O)O)C(OC2OC(COS(=O)(=O)O)C(OC3OC(COS(=O)(=O)O)C(OC4OC(COS(=O)(=O)O)C(OC5OC(COS(=O)(=O)O)C(OS(=O)(=O)O)C(OS(=O)(=O)O)C5OS(=O)(=O)O)C(OS(=O)(=O)O)C4OS(=O)(=O)O)C(OS(=O)(=O)O)C3OS(=O)(=O)O)C(OS(=O)(=O)O)C2OS(=O)(=O)O)C(OS(=O)(=O)O)C1OS(=O)(=O)O |  |  | MT-4 | IIIB | 10.2 µg/mL
CC(=O)N[C@@H](CS)C(=O)O |  |  | CEM | IIIB | >100 µM
O=C1N(Cc2cccc(CO)c2)[C@H](CCc2ccccc2)[C@@H](O)[C@@H](Cc2ccccc2)N1Cc1cccc(CO)c1 |  |  | MT-2 | RF | <0.109 µM
COc1ccc2c(c1)C1(c3ccccc3)SCCN1C2=O |  |  | CEM + CEM-SS | IIIB | 1.18 µM
CC(C)=CCc1c(O)cc(O)c2c1CCc1cc(O)c(O)cc1-2 |  |  | MT-4 | IIIB | >20 µg/mL
CC(C)=CCN1Cc2cccc3[nH]c(=S)n(c23)C[C@@H]1C |  | RT-K103N Y181C | MT-4 | A17 | >100 µM
Fc1ccc2nc(/N=C/c3cccc(Cl)c3)sc2c1 |  |  | MT-4 | IIIB | >100 µM
N/C(=N/O)c1cccc(CN2C(=O)N(Cc3cccc(/C(N)=N\O)c3)[C@H](Cc3ccc(F)c(F)c3)[C@H](O)[C@H]2CCc2ccc(F)c(F)c2)c1 |  |  | MT-2 | RF | <0.117 µM
CCOC(=O)c1cn(Cc2ccncc2)c(Sc2cc(Cl)cc(Cl)c2)c1C(C)C |  |  | MT-4 | IIIB | 0.9 µM
COC(=O)N[C@@H](Cc1ccccc1)C(=O)NCCCC[C@@H](CO)N(CC(C)C)S(=O)(=O)c1ccc(N)cc1 |  |  | MT-4 | NL4-3 | 2 µM
Cc1ccnc2c1NC(=O)c1cccnc1N2C1CC1 |  |  | C8166 | IIIB | 0.04 µM
CC(C)[C@H](NC(=O)N(C)Cc1ccccn1)C(=O)N[C@@H](Cc1ccccc1)[C@H](O)[C@H](O)[C@H](Cc1ccccc1)NC(=O)[C@@H](NC(=O)N(C)Cc1ccccn1)C(C)C |  |  | MT-4 | IIIB | 0.2 µM

For reference, 4 entries again:

| smiles | setting | mutations | cells | strain | result |
|---|---|---|---|---|---|
| CNc1cccc(CN2C(=O)N(Cc3cccc(NC)c3)[C@H](Cc3ccccc3)[C@H](O)[C@H]2CCc2ccccc2)c1 |  |  | MT-2 | RF | <0.328 µM |
| CC(C)c1c(CO)cn(Cc2ccncc2)c1Sc1ccccc1 |  |  | MT-4 | IIIB | 0.1 µM |
| O=C(/C=C/c1ccc(O)c(O)c1)CCc1ccccc1 |  |  | MT-4 |  | >15 µM |
| Cc1cc(C)cc(Cc2c(C(C)C)nc(SCC(N)=O)n2COCc2ccccc2)c1 |  |  | MT-4 | IIIB | 0.15 µM |